From patent US11331351B2, “Bacillus strains improving health and performance of production animals” (priority 2015, dated 2022) come the findings set out here.

The test concerns S. aureus ATCC 29213. As to conditions: control strain.

As for Gentamycin, under “replicate MIC 1”, the “MIC 1” value was 0.5 µg/mL. Also, the “MIC 2” value (replicate MIC 2) is 0.5 µg/mL. In addition, for the setting “replicate MIC 3”, the “MIC 3” value is 0.5 µg/mL. Moreover, the “MIC 4” value (replicate MIC 4) is 1 µg/mL. For the same substance, where the note is “replicate MIC 5”, the “MIC 5” value stood at 1 µg/mL.
